Measured values from several laboratories, pooled; numbers as filed in NIAID ChemDB.

Common to all: host cell toxicity; cell line: HepG2.2.15; measure: CC50

Blank or dashed fields: not listed here. CCn: concentration that lowers growth or viability of the cells by n%. Conditions beyond the fields shown may differ between rows.

SMILES | method | result
COCC(=O)O[C@@H](C[C@@H](C)[C@]12CC[C@@]3(C)[C@@]1(C[C@H](OC(=O)COC)[C@H]1[C@@]4(C)CCC(=O)C(C)(C)[C@@H]4CC[C@@]13C)O2)[C@@H](OC(=O)COC)C(C)(C)O |  | 1100 µM
COC(=O)C1=C(CN2CC(F)(F)[C@@H]3[C@H]2CON3C[C@H](O)C(C)(C)C(=O)O)NC(c2nccs2)=N[C@H]1c1ccc(F)c(F)c1Cl | WST / absorbance | >100 µM
Clc1ccc(COC(Cn2ccnc2)c2ccc(Cl)cc2Cl)c(Cl)c1 | MTT | 22.5 µM
CCOC(=O)C1=C(CN2CC(F)(F)[C@@H]3[C@H]2CON3C[C@@H](F)CCC(C)(C)C(=O)O)NC(c2nccs2)=N[C@H]1c1cccc(F)c1C | WST / absorbance | 44 µM
C[C@H](C[C@H](OC(=O)c1ccc(Cl)cc1)[C@@H](OC(=O)c1ccc(Cl)cc1)C(C)(C)O)C1=C2C[C@H](OC(=O)c3ccc(Cl)cc3)[C@H]3[C@@]4(C)CCC(=O)C(C)(C)[C@@H]4CC[C@]3(C)[C@@]2(C)CC1 |  | >900 µM
CCOC(=O)C1=C(CN2CC(F)(F)[C@@H]3[C@H]2CON3C[C@@H](F)C(C)(C)C(=O)O)NC(c2nccs2)=N[C@H]1c1ccc(F)c(F)c1Cl | WST / absorbance | 29.7 µM
C[C@H](C[C@H](OC(=O)COc1ccccc1)[C@@H](OC(=O)COc1ccccc1)C(C)(C)O)C1=C2C[C@H](OC(=O)COc3ccccc3)[C@H]3[C@@]4(C)CCC(=O)C(C)(C)[C@@H]4CC[C@]3(C)[C@@]2(C)CC1 |  | >1300 µM
CCOCC(=O)OC(C)(C)[C@H](OC(C)=O)[C@H](C[C@@H](C)C1=C2C[C@H](OC(C)=O)[C@H]3[C@@]4(C)CCC(=O)C(C)(C)[C@@H]4CC[C@]3(C)[C@@]2(C)CC1)OC(C)=O |  | >2800 µM
CCOC(=O)C1=C(CN2CC(F)(F)[C@H]3[C@@H]2CCN3CC(F)(F)C(C)(C)C(=O)O)NC(c2nccs2)=N[C@H]1c1cccc(F)c1C | WST / absorbance | 13.2 µM
CC1(C)[C@@H](O)CC[C@]2(C)[C@H]3C(=O)C=C4[C@@H]5C[C@@](C)(C(=O)OCc6cc(F)cc(F)c6)CC[C@]5(C)CC[C@@]4(C)[C@]3(C)CC[C@@H]12 |  | >1230 µM
CC(=O)OC1=CC[C@@]2(C)[C@@H](CC[C@@]3(C)[C@H]2[C@@H](OC(C)=O)CC2=C([C@H](C)C[C@H](OC(C)=O)[C@@H](OC(C)=O)C(C)(C)OC(C)=O)CC[C@@]23C)C1(C)C |  | >2100 µM
CCOC(=O)C1=C(CN2CC(F)(F)[C@@H]3[C@H]2CON3CC[C@](C)(O)C(=O)O)NC(c2nccs2)=N[C@H]1c1ccc(F)c(F)c1C | WST / absorbance | >100 µM
CC1(C)[C@@H](OC(=O)c2cc(=O)c3ccccc3o2)CC[C@]2(C)[C@H]3CC=C4[C@@H]5C[C@@](C)(C(=O)OCC(N)=O)CC[C@]5(C)CC[C@@]4(C)[C@]3(C)CC[C@@H]12 |  | >944 µM
C[C@H](C[C@H](OC(=O)COc1cc(Cl)c(Cl)cc1Cl)[C@@H](OC(=O)COc1cc(Cl)c(Cl)cc1Cl)C(C)(C)OC(=O)COc1cc(Cl)c(Cl)cc1Cl)C1=C2C[C@H](OC(=O)COc3cc(Cl)c(Cl)cc3Cl)[C@H]3[C@@]4(C)CCC(=O)C(C)(C)[C@@H]4CC[C@]3(C)[C@@]2(C)CC1 |  | >1200 µM
C=C(C)[C@H](OC(=O)COC(C)=O)[C@H](C[C@@H](C)C1=C2C[C@H](OC(=O)COC(C)=O)[C@H]3[C@@]4(C)CCC(=O)C(C)(C)[C@@H]4CC[C@]3(C)[C@@]2(C)CC1)OC(=O)COC(C)=O |  | <32 µM
C[C@H](C[C@H](OC(=O)c1cccc([N+](=O)[O-])c1)[C@@H](OC(=O)c1cccc([N+](=O)[O-])c1)C(C)(C)OC(=O)c1cccc([N+](=O)[O-])c1)C1=C2C[C@H](OC(=O)c3cccc([N+](=O)[O-])c3)[C@H]3[C@@]4(C)CCC(=O)C(C)(C)[C@@H]4CC[C@]3(C)[C@@]2(C)CC1 |  | >1100 µM
CC1(C)[C@@H](O)CC[C@]2(C)[C@H]3C(=O)C=C4[C@@H]5C[C@@](C)(C(=O)OCC6CC6)CC[C@]5(C)CC[C@@]4(C)[C@]3(C)CC[C@@H]12 |  | 696 µM
CCCCC(=O)O[C@@H](C[C@@H](C)C1=C2C[C@H](OC(=O)CCCC)[C@H]3[C@@]4(C)CCC(=O)C(C)(C)[C@@H]4CC[C@]3(C)[C@@]2(C)CC1)[C@@H](OC(=O)CCCC)C(C)(C)OC(=O)CCCC |  | >1400 µM
COc1cc(/C=C/C(=O)O[C@H]2CC[C@]3(C)[C@H]4C(=O)C=C5[C@@H]6C[C@@](C)(C(=O)O)CC[C@]6(C)CC[C@@]5(C)[C@]4(C)CC[C@H]3C2(C)C)cc(OC)c1OC |  | >1160 µM
CCCC(=O)O[C@@H](C[C@@H](C)C1=C2C[C@H](OC(=O)CCC)[C@H]3[C@@]4(C)CCC(=O)C(C)(C)[C@@H]4CC[C@]3(C)[C@@]2(C)CC1)[C@@H](OC(=O)CCC)C(C)(C)OC(=O)CCC |  | >1800 µM
CCOC(=O)C1=C(CN2CC(F)(F)[C@@H]3[C@H]2CON3CC(CC(C)(C)C(=O)O)OC)NC(c2nccs2)=N[C@H]1c1cccc(F)c1C | WST / absorbance | 50 µM
CC1(C)[C@@H](O)CC[C@]2(C)[C@H]3C(=O)C=C4[C@@H]5C[C@@](C)(C(=O)OCc6ccccc6)CC[C@]5(C)CC[C@@]4(C)[C@]3(C)CC[C@@H]12 |  | 2010 µM